Source: PubChem BioAssay AID1224833 (University of Georgia, 2016)
The deposit covers about 12,000 reagents; shown is a part drawn at random. Of all reagents, about 5,600 (46%) got an active call. 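Active calls cover z-scores past 1 in both directions, so they include lowered as well as raised rotavirus replication.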 Unmarked entries are inactive.

Assay: 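Human genes whose knock-down alters rotavirus replication in monkey cells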 (primary screen)
Cells: monkey MA104 kidney cells
Reagents: siRNA pool against human genes, 50 nM
Timing: 48 h knock-down before infection; read 24 h after infection
Conditions: infection with rotavirus strain RV3 two days after transfection; infectious dose for this stage not given
Measurement: 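z-score of rotavirus antigen signal per well, from a fluorescent immunoassay, relative to non-targeting control wells on the same plate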
Scale: z-score vs non-targeting control: higher = more rotavirus replication than with non-targeting control
Rule for the call: In these data the active calls have z-score vs non-targeting control at about -1 or lower, or at about 1 or higher
Meaning of the calls: active = z-score beyond 1 either way; inactive = z-score within 1 of zero

Gene | z-score vs non-targeting control
RIPPLY3 (ripply transcriptional repressor 3) | -0.223
MED22 (mediator complex subunit 22) | -1.17 (active)
CDR2 (cerebellar degeneration related protein 2) | 0.289
IFNA21 (interferon alpha 21) | 0.967
HECA (HECA ribonucleoprotein granule regulator) | -0.254
CXCL8 (C-X-C motif chemokine ligand 8) | -0.637
CTNNBL1 (catenin beta like 1) | 0.605
DNHD1 (dynein heavy chain domain 1) | 1.53 (active)
TPM3 (tropomyosin 3) | -2.04 (active)
RBMY1D (RNA binding motif protein Y-linked family 1 member D) | -3.22 (active)
PDCD6IP (programmed cell death 6 interacting protein) | -1
RASSF7 (Ras association domain family member 7) | -0.403
RB1 (RB transcriptional corepressor 1) | -1.14 (active)
WNT7B (Wnt family member 7B) | 0.116
RIN1 (Ras and Rab interactor 1) | -1.18 (active)
OR1E2 (olfactory receptor family 1 subfamily E member 2) | -0.658
CCDC186 (coiled-coil domain containing 186) | 0.222
DES (desmin) | -0.707
TDRD3 (tudor domain containing 3) | -1.42 (active)
SOS2 (SOS Ras/Rho guanine nucleotide exchange factor 2) | -0.721
SNRPB2 (small nuclear ribonucleoprotein polypeptide B2) | -1.19 (active)
ODAM (odontogenic, ameloblast associated) | 0.771
MORN5 (MORN repeat containing 5) | 0.385
CTXN1 (cortexin 1) | -0.796
PRR15 (proline rich 15) | 1.26 (active)
MTFMT (mitochondrial methionyl-tRNA formyltransferase) | -1.66 (active)
APBA3 (amyloid beta precursor protein binding family A member 3) | 1.52 (active)
CAVIN1 (caveolae associated protein 1) | -2.15 (active)
PRNP (prion protein (Kanno blood group)) | -1.94 (active)
CADM4 (cell adhesion molecule 4) | -1.42 (active)
FDX1 (ferredoxin 1) | 1.24 (active)
PTGDS (prostaglandin D2 synthase) | -3.02 (active)
ZNF235 (zinc finger protein 235) | -1.58 (active)
FLVCR1 (FLVCR choline and heme transporter 1) | -0.572
UTP4 (UTP4 small subunit processome component) | -0.343
SLC1A7 | -0.783
ADGRD2 (adhesion G protein-coupled receptor D2) | 1.49 (active)
ZCCHC10 (zinc finger CCHC-type containing 10) | -0.261
DEFB126 (defensin beta 126) | 3.92 (active)
NACA2 (nascent polypeptide associated complex subunit alpha 2) | 0.579
PHIP (PHIP subunit of CUL4-Ring ligase complex) | -1.1 (active)
F2RL3 (F2R like thrombin or trypsin receptor 3) | 0.701
C8orf33 (chromosome 8 open reading frame 33) | 1.75 (active)
NEDD8 (NEDD8 ubiquitin like modifier) | -0.941
PLA2G15 (phospholipase A2 group XV) | 0.621
ALAS1 (5'-aminolevulinate synthase 1) | 1.72 (active)
COX17 (cytochrome c oxidase copper chaperone COX17) | 1.96 (active)
OR3A1 (olfactory receptor family 3 subfamily A member 1) | 0.641
ORM1 (orosomucoid 1) | 0.733
EBPL (EBP like) | 1.28 (active)
MSI1 (musashi RNA binding protein 1) | -0.75
NUMBL (NUMB like endocytic adaptor protein) | -0.562
NCKAP1L (NCK associated protein 1 like) | -2.66 (active)
COBLL1 (cordon-bleu WH2 repeat protein like 1) | -0.619
RESF1 (retroelement silencing factor 1) | 0.574
DPH6 (diphthamine biosynthesis 6) | -1.36 (active)
TRAPPC9 (trafficking protein particle complex subunit 9) | -0.96
RAPGEF4 (Rap guanine nucleotide exchange factor 4) | -1.96 (active)
AGER (advanced glycosylation end-product specific receptor) | 0.552
NFIA (nuclear factor I A) | 1.35 (active)
CENPT (centromere protein T) | -2.26 (active)
SPMIP10 (sperm microtubule inner protein 10) | 3.36 (active)
KRT6C (keratin 6C) | -1.95 (active)
OR7A5 (olfactory receptor family 7 subfamily A member 5) | 0.416
CLDN11 (claudin 11) | -0.24
GRB14 (growth factor receptor bound protein 14) | 1.56 (active)
WIPF2 (WAS/WASL interacting protein family member 2) | 0.945
PPP1R13L (protein phosphatase 1 regulatory subunit 13 like) | -0.401
FAM217B (family with sequence similarity 217 member B) | -0.741
IFI27L2 (interferon alpha inducible protein 27 like 2) | -2.26 (active)
OR10P1 (olfactory receptor family 10 subfamily P member 1) | -1.05 (active)
DEDD2 (death effector domain containing 2) | 0.202
LETMD1 (LETM1 domain containing 1) | -2.22 (active)
SIRT7 (sirtuin 7) | -0.517
HOXA11 (homeobox A11) | 0.871
MYL12A (myosin light chain 12A) | 0.727
DOCK6 (dedicator of cytokinesis 6) | -0.889
STRN3 (striatin 3) | 0.254
ZNF266 (zinc finger protein 266) | -0.836
LMO1 (LIM domain only 1) | -1.12 (active)
CDX4 (caudal type homeobox 4) | -1.1 (active)
RMND1 (required for meiotic nuclear division 1 homolog) | -0.195
CYP2E1 (cytochrome P450 family 2 subfamily E member 1) | 2.44 (active)
HIP1R (huntingtin interacting protein 1 related) | 0.0798
DNAJC16 (DnaJ heat shock protein family (Hsp40) member C16) | -0.895
RHBDF2 (rhomboid 5 homolog 2) | 0.922
ADH1B (alcohol dehydrogenase 1B (class I), beta polypeptide) | 0.682
BBS7 (Bardet-Biedl syndrome 7) | 1.27 (active)
MRPS17 (mitochondrial ribosomal protein S17) | -0.174
LEPROTL1 (leptin receptor overlapping transcript like 1) | -2.56 (active)
TMEM252 (transmembrane protein 252) | -1.72 (active)
HSD11B1 (hydroxysteroid 11-beta dehydrogenase 1) | -0.758
EIF1 (eukaryotic translation initiation factor 1) | 0.753
HNRNPA1 (heterogeneous nuclear ribonucleoprotein A1) | 0.98
CLTC (clathrin heavy chain) | 0.417
PRIMA1 (proline rich membrane anchor 1) | -0.127
KLHDC10 (kelch domain containing 10) | 1.2 (active)
CA14 (carbonic anhydrase 14) | -0.906
XBP1 (X-box binding protein 1) | -0.565
COX6A1 (cytochrome c oxidase subunit 6A1) | 1.31 (active)
STRBP (spermatid perinuclear RNA binding protein) | -1.26 (active)
EHHADH (enoyl-CoA hydratase and 3-hydroxyacyl CoA dehydrogenase) | -1.7 (active)
SEPHS1 (selenophosphate synthetase 1) | -0.579
PRRG2 (proline rich and Gla domain 2) | 0.229
FEZ1 (fasciculation and elongation protein zeta 1) | 0.218
C5 (complement C5) | 0.255
SPRR2E (small proline rich protein 2E) | -0.129
ABCG2 (ATP binding cassette subfamily G member 2 (JR blood group)) | 1.88 (active)
MMP8 (matrix metallopeptidase 8) | 1.07 (active)
RIDA (reactive intermediate imine deaminase A) | -0.0156

Copied from the list.
Value for ABCG2 (ATP binding cassette subfamily G member 2 (JR blood group)) under “z-score vs non-targeting control”: 1.88 (active)
APBA3 (amyloid beta precursor protein binding family A member 3), z-score vs non-targeting control = 1.52 (active)
For “z-score vs non-targeting control”, LEPROTL1 (leptin receptor overlapping transcript like 1) has -2.56 (active)
C5 (complement C5), z-score vs non-targeting control: 0.255
Result for DES (desmin) under “z-score vs non-targeting control”: -0.707
